Laboratory results taken from patent publication US20090143288A1, “Peptide-complement conjugates” (Roche Palo Alto LLC, priority 2007, published 2009).

Target: biotinylated HR1 peptide Biotin-T-2324 (HIV-1)

B1: Rob 2 (Fusion protein C1qA-T1357) (protein)
chain: MRGSHHHHHHIEGRGARGIPGIKGTKGSPGNIKDQPRPAFSAIRRNPPMGGNVVIFDTVITNQEEPYQNHSGRFVCTVPGYYYFTFQVLSQWEICLSIVSSSRGQVRRSLGFCDTTNKGLFQVVSGGMVLQLQQGDQVWVEKDPKKGHIYQGSEADSVFSGFLIFPSAGGGSGGGSGGGSGGGSGGGSGGGWQEWEQKITALLEQAQIQQEKNEYELQKLDKWASLWEWFG
- Ka: 1.13e+09 M⁻¹
- Kd: 0.888 nM

B2: Rob 1 (Fusion protein T1357-C1qA) (protein)
chain: MRGSHHHHHHAIDVIEGRWQEWEQKITALLEQAQIQQEKNEYELQKLDKWASLWEWFGKGDQGEPGPSGNPGKVGYPGPSGPLGARGIPGIKGTKGSPGNIKDQPRPAFSAIRRNPPMGGNVVIFDTVITNQEEPYQNHSGRFVCTVPGYYYFTFQVLSQWEICLSIVSSSRGQVRRSLGFCDTTNKGLFQVVSGGMVLQLQQGDQVWVEKDPKKGHIYQGSEADSVFSGFLIFPSA
- Ka: 1.85e+08 M⁻¹
- Kd: 5.41 nM
